The record followed here is publication PMC6405875 (Scientific Reports, 2019).

Chains of the proteins cited; added tags and fusions are not shown.
UniProt Q01959, whole entry Y88F/H547A: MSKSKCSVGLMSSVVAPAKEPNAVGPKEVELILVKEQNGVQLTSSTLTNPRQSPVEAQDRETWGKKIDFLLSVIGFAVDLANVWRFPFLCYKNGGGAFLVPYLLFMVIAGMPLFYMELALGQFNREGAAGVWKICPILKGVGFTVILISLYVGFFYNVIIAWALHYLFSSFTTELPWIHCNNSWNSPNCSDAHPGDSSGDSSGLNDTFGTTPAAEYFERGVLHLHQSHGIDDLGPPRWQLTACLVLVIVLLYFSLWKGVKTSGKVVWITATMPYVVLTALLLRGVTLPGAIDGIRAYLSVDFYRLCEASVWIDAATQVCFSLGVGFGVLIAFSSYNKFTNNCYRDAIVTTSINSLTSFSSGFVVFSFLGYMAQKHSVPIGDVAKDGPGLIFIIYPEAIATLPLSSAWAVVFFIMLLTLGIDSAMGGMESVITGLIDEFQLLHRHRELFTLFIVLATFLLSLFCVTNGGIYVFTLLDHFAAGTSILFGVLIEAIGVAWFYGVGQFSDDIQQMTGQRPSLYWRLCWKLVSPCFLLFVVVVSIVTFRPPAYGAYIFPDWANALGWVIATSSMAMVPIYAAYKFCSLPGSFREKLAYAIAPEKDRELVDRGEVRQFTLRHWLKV
UniProt Q01959, whole entry: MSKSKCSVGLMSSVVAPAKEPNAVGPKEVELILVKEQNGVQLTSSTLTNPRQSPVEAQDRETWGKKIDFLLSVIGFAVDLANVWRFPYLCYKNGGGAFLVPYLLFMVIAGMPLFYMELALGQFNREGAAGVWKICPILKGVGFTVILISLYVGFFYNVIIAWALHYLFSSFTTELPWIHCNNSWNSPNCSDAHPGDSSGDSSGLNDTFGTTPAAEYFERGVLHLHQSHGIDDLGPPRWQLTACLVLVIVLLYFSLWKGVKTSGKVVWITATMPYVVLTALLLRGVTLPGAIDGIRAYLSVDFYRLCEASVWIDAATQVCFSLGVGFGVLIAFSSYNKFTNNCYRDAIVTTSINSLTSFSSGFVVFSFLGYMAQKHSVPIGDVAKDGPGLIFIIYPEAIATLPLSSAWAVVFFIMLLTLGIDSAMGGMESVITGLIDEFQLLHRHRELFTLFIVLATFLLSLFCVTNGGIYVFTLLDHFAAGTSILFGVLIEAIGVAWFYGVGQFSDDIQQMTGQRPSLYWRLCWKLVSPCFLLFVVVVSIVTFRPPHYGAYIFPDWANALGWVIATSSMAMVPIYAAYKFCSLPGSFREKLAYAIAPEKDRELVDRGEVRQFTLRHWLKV
UniProt Q01959, whole entry Y88F/K92M/H547A: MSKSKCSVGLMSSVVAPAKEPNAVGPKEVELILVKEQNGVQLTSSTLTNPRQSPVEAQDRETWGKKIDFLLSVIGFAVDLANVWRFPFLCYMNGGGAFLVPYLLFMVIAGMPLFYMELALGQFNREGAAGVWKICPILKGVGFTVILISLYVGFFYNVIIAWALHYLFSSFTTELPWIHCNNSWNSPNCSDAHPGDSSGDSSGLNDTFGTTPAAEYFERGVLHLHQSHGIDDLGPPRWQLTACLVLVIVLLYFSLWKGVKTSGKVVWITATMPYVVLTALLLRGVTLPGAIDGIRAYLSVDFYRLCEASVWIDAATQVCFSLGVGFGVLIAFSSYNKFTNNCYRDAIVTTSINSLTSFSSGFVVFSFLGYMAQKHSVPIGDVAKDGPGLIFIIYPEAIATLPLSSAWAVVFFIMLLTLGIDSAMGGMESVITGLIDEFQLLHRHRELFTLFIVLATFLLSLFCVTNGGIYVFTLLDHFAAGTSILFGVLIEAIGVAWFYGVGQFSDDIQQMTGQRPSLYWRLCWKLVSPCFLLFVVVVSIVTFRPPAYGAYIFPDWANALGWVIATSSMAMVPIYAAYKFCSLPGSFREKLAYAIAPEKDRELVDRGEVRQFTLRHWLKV

Test [1] concerns the target T1, hDAT Y88F/H547A (Homo sapiens, UniProt Q01959, H547A/Y88F).
T1 construct: expressed in transfected cells; host or cells: rat PC12 cells (ATCC CRL-1721), pcDNA3.1+
Put plainly: [3H]WIN 35,428 binding in intact PC12 cells transfected with Y88F/H547A hDAT.

Test [2] addresses T2, WT hDAT (Homo sapiens, UniProt Q01959).
T2 construct: expressed in transfected cells; host or cells: rat PC12 cells (ATCC CRL-1721), pcDNA3.1+
Put plainly: [3H]WIN 35,428 binding in intact PC12 cells transfected with WT hDAT.

Test [3] concerns the target hDAT Y88F/K92M/H547A (Homo sapiens, UniProt Q01959, H547A/K92M/Y88F). Put plainly: [3H]WIN 35,428 binding in intact PC12 cells transfected with Y88F/K92M/H547A hDAT. Set-up: expressed in transfected cells; host or cells: rat PC12 cells (ATCC CRL-1721), pcDNA3.1+.

On to “2beta-carbomethoxy-3-beta-(4-fluorophenyl)tropane [[^3H]WIN 35,428]”, for which the “Bmax of [3H]WIN 35,428 binding” value was 3.16 ± 0.78 pmol/10^5 cells in test [1], 5.02 ± 0.71 pmol/10^5 cells in test [2] and 1.96 ± 0.39 pmol/10^5 cells in test [3]. Further, the values for the Kd in test [1], in test [2] and in test [3] were 7.1 ± 0.74 nM, 9.27 ± 1.32 nM and 27.7 ± 6.5 nM, respectively.
